From PMC12396409, “Screening and hit evaluation of a microbial metabolite library against the pathogenic Plasmodium falciparum and Toxoplasma gondii parasites” (International Journal for Parasitology: Drugs and Drug …, 2025)

Tests used:
[1] = system: P. falciparum 3D7 parasites; assay: P. falciparum growth inhibition assay, 2-cycle (120 h treatment), delayed-death screen and dose-response; type: cell-based, Plasmodium falciparum; conditions: screen at 2 μg/mL
[2] = system: P. falciparum 3D7 parasites; assay: P. falciparum growth inhibition assay, 1-cycle (72 h treatment), SYBR DNA staining (library screen at 2 μg/mL and dose-response); type: cell-based, Plasmodium falciparum
[3] = system: T. gondii RH strain (RH-Tub-eYFP) tachyzoites; conditions: 72 h, screen at 2 μg/mL

Question: Which Pf_120h_%Growth_Rep1 ([1]; replicate 1) does the source give for `CCC(C)C1NC(=O)/C(=C(/C)O)C1=O` (stereo not drawn) here?
Answer: 62.50%

Question: And the Pf_120h_%Growth_Rep2 ([1]; replicate 2)?
Answer: 90.44%

Question: And the Pf_72h_%Growth_Rep1 ([2]; replicate 1)?
Answer: 78.84%

Question: And the Pf_72h_%Growth_Rep2 ([2]; replicate 2)?
Answer: 104.74%

Question: What about the Tg_72h_%Growth_Rep1 ([3]; replicate 1) of the same compound?
Answer: 82.95%

Question: And the Tg_72h_%Growth_Rep2 ([3]; replicate 2)?
Answer: 59.53%
